Laboratory results: PubChem BioAssay AID624099 (ICCB-Longwood, 2012)
Purpose: 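Knock-downs relieving repression by E2 of an HPV18 LCR luciferase reporter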 (primary screen). Cells: human C33A cervical carcinoma cells (HPV-negative) stably expressing BPV1 E2 and an HPV18 LCR luciferase reporter. Reagent: siRNA pool against human genes, 40 nM. Timing: 72 h. Measurement: 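HPV18 LCR reporter light per well, converted to plate-wise z-scores that exclude control wells, and averaged over triplicate plates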. Direction: mean z-score and z-score: higher = stronger reporter signal, weaker E2 silencing. Hit rule: 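Mean z ≥ 2 together with z ≥ 2 in two or more of the three replicates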.
In all, the deposit lists about 21,000 reagents; shown is a random part of them. Of all reagents, 497 (2.4%) were called active. 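Higher z means weaker E2 silencing; only reporter increases were scored, and knock-downs that hurt cell survival may mask genuine repressor factors.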

{"gene knocked down":"DAND5","mean z-score":-0.03,"z-score, replicate A":0.18,"z-score, replicate B":-0.21,"z-score, replicate C":-0.06,"Call":"inactive"}
{"gene knocked down":"MAP3K10","mean z-score":-1.17,"z-score, replicate A":-1.2,"z-score, replicate B":-1.3,"z-score, replicate C":-1.01,"Call":"inactive"}
{"gene knocked down":"FAM53B","mean z-score":0.72,"z-score, replicate A":0.24,"z-score, replicate B":0.81,"z-score, replicate C":1.12,"Call":"inactive"}
{"gene knocked down":"OR6K2","mean z-score":-0.1,"z-score, replicate A":-0.53,"z-score, replicate B":0.34,"z-score, replicate C":-0.1,"Call":"inactive"}
{"gene knocked down":"ZSCAN12","mean z-score":-0.32,"z-score, replicate A":-0.56,"z-score, replicate B":-0.17,"z-score, replicate C":-0.21,"Call":"inactive"}
{"gene knocked down":"ALKAL1","mean z-score":0.96,"z-score, replicate A":1,"z-score, replicate B":0.71,"z-score, replicate C":1.17,"Call":"inactive"}
{"gene knocked down":"NCAPG2","mean z-score":0.97,"z-score, replicate A":0.95,"z-score, replicate B":1.14,"z-score, replicate C":0.81,"Call":"inactive"}
{"gene knocked down":"STT3B","mean z-score":1.37,"z-score, replicate A":1.53,"z-score, replicate B":1.2,"z-score, replicate C":1.38,"Call":"inactive"}
{"gene knocked down":"SPMIP6","mean z-score":1.45,"z-score, replicate A":1.29,"z-score, replicate B":1.43,"z-score, replicate C":1.62,"Call":"inactive"}
{"gene knocked down":"ELOB","mean z-score":-0.93,"z-score, replicate A":-0.97,"z-score, replicate B":-0.89,"z-score, replicate C":-0.93,"Call":"inactive"}
{"gene knocked down":"TM2D1","mean z-score":0.41,"z-score, replicate A":0.66,"z-score, replicate B":0.3,"z-score, replicate C":0.29,"Call":"inactive"}
{"gene knocked down":"LOC201484 (retired record)","mean z-score":-0.67,"z-score, replicate A":-0.57,"z-score, replicate B":-1.06,"z-score, replicate C":-0.37,"Call":"inactive"}

In a second layout: entries from further up.
gene knocked down,mean z-score,"z-score, replicate A","z-score, replicate B","z-score, replicate C",Call
ELOB,-0.93,-0.97,-0.89,-0.93,inactive
TM2D1,0.41,0.66,0.3,0.29,inactive
